A mixed list of measured activities; the numbers were collected in NIAID ChemDB.

Shared fields: whole-cell or culture tests; organism: Human cytomegalovirus; cells: MRC-5; measure: EC50

ECn is the concentration giving n% inhibition of infection, replication or growth.

COc1ccccc1CNC(=O)C1=Cc2ccncc2CC1 ; strain: P8 ; method: plaque count ; value: 11.8 µM
Nc1nc2c(ncn2[C@@H]2C[C@H](CO)[C@H]2CO)c(=O)[nH]1 ; strain: Towne (ganciclovir- foscarnet-susceptible) ; method: plaque count ; value: 6.8 µM
CC(C)OC(=O)c1c(C(C)C)cc2ccccn12 ; strain: AD169 ; method: plaque count ; value: >100 µM
CCCCCCCCCCCCCCCCCCOCCOP1(=O)CO[C@@H](Cn2ccc(N)nc2=O)CO1 ; strain: TOWNE ; method: plaque count ; value: 0.001 µM
Nc1nc2c(ncn2COC(CO)CCP(=O)(O)O)c(=O)[nH]1 ; strain: DAVIS ; method: plaque count ; value: 5.8 µM
O=C(NCCc1ccccc1)C1=Cc2ccncc2CC1 ; strain: C8805-37 ; method: plaque count ; value: 6.5 µM
CCCCCCCCCCCCCCCCOCCCOP(=O)(O)CO[C@H](CO)Cn1ccc(N)nc1=O ; strain: C9209/1-4-4 drug-resistant mutant ; method: plaque count ; value: 0.003 µM
Nc1nc2c(ncn2COC(COP(=O)(O)O)COP(=O)(O)O)c(=O)[nH]1 ; strain: AD169 ; method: plaque count ; value: 8 µM
CCc1cn([C@H]2C[C@H](O)[C@@H](CO)O2)c(=S)[nH]c1=O ; strain: T-137 ; method: plaque count ; value: >277.6 µM
O[C@@H]1[C@H](O)[C@H](O)CO[C@H]1n1c(Br)nc2cc(Cl)c(Cl)cc21 ; strain: 1117/R (K513N) ; method: plaque count ; value: 1.2 µM
CC(=O)c1c(-c2ccc(OC(F)(F)F)cc2)cc2ccccn12 ; strain: AD169 ; method: plaque count ; value: >100 µM
CCc1cn([C@@H]2O[C@H](CO)[C@@H](O)[C@@H]2O)c(=S)nc1N ; strain: AD169 ; method: plaque count ; value: >264.9 µM
Brc1ccc2cc(-c3ccccc3)cn2c1 ; strain: AD169 ; method: plaque count ; value: >100 µM
Nc1nc2c(ncn2COC(CO)CO)c(=O)[nH]1 ; strain: C8302 ; method: hybridisation ; value: 0.3 µM
Nc1nc2c(ncn2[C@@H]2C[C@H](CO)[C@H]2CO)c(=O)[nH]1.O=C(O)P(=O)(O)O ; strain: AD169 (ganciclovir foscarnet-susceptible) ; method: plaque count ; value: 1.18 µM
C=Cc1cn([C@H]2C[C@H](O)[C@@H](CO)O2)c(=S)[nH]c1=O ; strain: AD169 ; method: plaque count ; value: >277.6 µM
O=C(O)c1cccn2cc(-c3ccccc3)cc12 ; strain: AD169 ; method: plaque count ; value: >100 µM
O=c1[nH]c(=S)n([C@@H]2O[C@H](CO)[C@@H](O)[C@@H]2O)cc1CCO ; strain: T-137 ; method: plaque count ; value: >213 µM
NC1=NCCN1CC(=O)O ; strain: AD169 ; method: plaque count ; value: 2300 µM
O=c1[nH]c(=S)n([C@@H]2O[C@H](CO)[C@@H](O)[C@@H]2O)cc1/C=C/Br ; strain: 93-1R ; method: plaque count ; value: >213 µM
Nc1nc2c(ncn2COC(CO)CO)c(=O)[nH]1 ; strain: AD169 (ganciclovir foscarnet-susceptible) ; method: plaque count ; value: 3.09 µM
Nc1nc2c(ncn2C[C@@H]2CC[C@@H](P(=O)(O)O)O2)c(=O)[nH]1 ; strain: P8 ganciclovir-sensitive ; method: plaque count ; value: 0.2 µg/mL
CC(C)Oc1ccccc1CNC(=O)c1ccc2cnccc2n1 ; strain: AD169 ; method: plaque count ; value: 0.03 µM
O=c1[nH]c(=S)n([C@@H]2O[C@H](CO)[C@@H](O)[C@@H]2O)cc1/C=C/c1ccccc1 ; strain: 93-1R ; method: plaque count ; value: >213 µM
Nc1nc2c(ncn2COC(CO)CO)c(=O)[nH]1 ; strain: Isolate 539 ; method: ELISA ; value: 6.45 µM
Cc1cn([C@H]2C[C@H](O)[C@@H](CO)O2)c(=S)nc1N ; strain: T-137 ; method: plaque count ; value: >277.4 µM
O=C(O)c1ccc2cc(-c3ccccc3)cn2c1 ; strain: AD169 ; method: plaque count ; value: >100 µM
C=Cc1cn([C@@H]2O[C@H](CO)[C@@H](O)[C@@H]2O)c(=S)nc1N ; strain: 93-1R ; method: plaque count ; value: 52 µM
O=C1NCc2ccccc2OCC/C=C/c2cncc3ccc1nc23 ; strain: C8704 (ganciclovir-resistant UL97 mutant) ; method: plaque count ; value: 0.00024 µg/mL
C=Cc1cn([C@@H]2O[C@H](CO)[C@@H](O)[C@@H]2O)c(=S)[nH]c1=O ; strain: T-137 ; method: plaque count ; value: >213 µM
Fc1ccc2cc(-c3ccccc3)cn2c1 ; strain: AD169 ; method: plaque count ; value: >100 µM
CCCCCCCCCCCCCCCCCCOCCOP(=O)(O)CO[C@H](CO)Cn1ccc(N)nc1=O ; strain: C9208/5-4-2 ; method: plaque count ; value: 0.001 µM
OC[C@H]1O[C@@H](n2c(Br)nc3cc(Cl)c(Cl)cc32)[C@H](O)[C@@H]1O ; strain: AD169 ; method: plaque count ; value: <0.6 µM
Nc1ccn(C[C@@H](CO)OCP(=O)(O)O)c(=O)n1 ; strain: AD169 (ganciclovir foscarnet-susceptible) ; method: plaque count ; value: 0.32 µM
CCOP(=O)(O)CCC(CO)OCn1cnc2c(=O)[nH]c(N)nc21 ; strain: C8805 (ganciclovir-resistant) ; method: plaque count ; value: 320 µg/mL

The first 4 rows once more:

| smiles | strain | method | value |
|---|---|---|---|
| COc1ccccc1CNC(=O)C1=Cc2ccncc2CC1 | P8 | plaque count | 11.8 µM |
| Nc1nc2c(ncn2[C@@H]2C[C@H](CO)[C@H]2CO)c(=O)[nH]1 | Towne (ganciclovir- foscarnet-susceptible) | plaque count | 6.8 µM |
| CC(C)OC(=O)c1c(C(C)C)cc2ccccn12 | AD169 | plaque count | >100 µM |
| CCCCCCCCCCCCCCCCCCOCCOP1(=O)CO[C@@H](Cn2ccc(N)nc2=O)CO1 | TOWNE | plaque count | 0.001 µM |

Rows are shuffled and stem from different studies.